Source: PubChem BioAssay AID504636 (National Center for Advancing Translational Sciences (NCATS), 2011)
The entries are a selection whose mix differs from that of the whole data set. Inconclusive results are not listed. Calls of active or inactive are those of the source. The call rests on the fitted dose curve.

The chains behind the UniProt entries cited, without tags or fusion partners. Where a name states a change or a piece, a line headed by the entry shows the natural chain unless it says otherwise.
UniProt O15648: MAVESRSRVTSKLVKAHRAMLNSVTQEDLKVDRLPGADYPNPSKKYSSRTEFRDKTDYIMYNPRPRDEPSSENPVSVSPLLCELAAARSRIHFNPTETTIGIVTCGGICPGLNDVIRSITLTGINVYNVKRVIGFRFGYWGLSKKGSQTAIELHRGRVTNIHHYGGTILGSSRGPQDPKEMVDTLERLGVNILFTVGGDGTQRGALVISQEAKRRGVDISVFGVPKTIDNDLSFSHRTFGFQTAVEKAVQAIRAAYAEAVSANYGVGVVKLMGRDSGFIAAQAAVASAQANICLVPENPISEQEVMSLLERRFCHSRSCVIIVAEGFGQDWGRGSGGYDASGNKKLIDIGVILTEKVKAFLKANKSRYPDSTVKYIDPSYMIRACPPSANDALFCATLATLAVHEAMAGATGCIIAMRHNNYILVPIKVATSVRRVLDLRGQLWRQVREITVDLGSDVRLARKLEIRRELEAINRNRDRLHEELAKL

biological target: ATP-dependent 6-phosphofructokinase (Trypanosoma brucei brucei) (UniProt O15648); test: Tb PFK orthogonal confirmatory assay using ATP depletion (Kinase-Glo Plus) as an alternative measure of Tb PFK activity: Hit Validation; conditions: Tb PFK enzyme, Kinase-Glo Plus luminescence; further: nearly all actives have a fitted effect of over 60% in size
Text: Various species of the protozoan family Trypanosomatidae are responsible for a range of serious human diseases in tropical and subtropical areas of the world. […] Many of the disorders caused by trypanosomatids are fatal if left untreated, but most currently used drugs are inefficient and toxic.
Oxidative metabolism involving the mitochondrial tricarboxylic acid cycle and oxidative phosphorylation are repressed in these parasites, and recent RNA interference (RNAi) experiments have shown that even partial depletion of certain individual glycolytic enzymes can lead to the death of cultured parasites. One such glycolytic enzyme, phosphofructokinase (PFK), catalyzes the formation of fructose-1,6-bisphosphate (F1,6BP) and ADP from fructose-6-phosphate (F6P) and ATP, and in many metabolic circumstances makes an important contribution to the control of flux through the glycolytic pathway. […]
Substrate buffer was dispensed into white, solid 1536-well plates at 3ul/well in 0.1M triethanolamine (TEA) buffer, pH 8.0, containing final concentrations of 5 mM MgCl2, 0.01% Tween20, 0.5 mM fructose-6-phosphate (F6P) and 0.1mM ATP. […] The plates were measured on a ViewLux plate reader for luminescent signal using a clear filter with a one second exposure. The %Activity was determined from the corrected luminescence values. […]
Potency means the concentration at half of the fitted maximal effect.

SMILES	Potency
O=P(Nc1nccs1)(c1ccccc1)c1nc2ccccc2s1 (stereo unspecified)	active: 23.9 µM
